Results from PMC7503848 (International Journal of Molecular Sciences, 2020).

Assays:
myosin A-MTIP complex = experiment: Competitive ITC, pre-bound myosin A-MTIP complex into ZA1; format: binding, Plasmodium falciparum
Method: For the competitive ITC experiment, a pre-bound complex of MyoA-MTIP in an equal molar ratio (150 µM each) was taken in the syringe. The complex was used to titrate ZA1 (10 µM) present in the cell. As a control, the pre-bound MyoA-MTIP complex was titrated in buffer only. All parameters were kept identical to the one-on-one ITC experiment. Origin software was used for data analysis and for calculating binding parameters like stoichiometry (N), binding constant (Kd), and enthalpy change (ƍH).

myosin A tail = experiment: Isothermal titration calorimetry, myosin A tail into ZA1; format: binding, Plasmodium falciparum; settings: ITC200, 25 °C, phosphate buffer
Method: ITC experiments were performed using ITC200 Microcalorimeter (Malvern, UK) at 25 °C in phosphate buffer. The cell and syringe volumes were kept 310 µL and 40 µL, respectively. The syringe was loaded with 100 µM MyoA tail for MyoA/MTIP interaction study and 150 µM for MyoA/ZA1 interaction. The sample cell was loaded with 10 µM each of MTIP and ZA1. MTIP and ZA1 were titrated using MyoA tail in injections of 2 µL each except for the first injection that was 0.4 µL. In between each titration, a 150-s interval for stirring was kept to ensure that the signal returns to baseline. Throughout the experiment, constant stirring at 300 rpm was maintained to ensure proper mixing of reaction components. For both experiments, a corresponding buffer control was also set up in which PBS was taken in the syringe. The enthalpy changes of titrations were measured, and the baseline values were subtracted from the test samples. The data analysis was carried out using Origin software and curve-fitted to obtain stoichiometry (N), dissociation constant (Kd), and enthalpy change (ƍH).

[1] = 25 °C, pre-bound myosin A-MTIP complex into ZA1

“SGRHVFKQLDIDIDIMHELDIELELDIDIDIMHPGDIDIDIDIDIQLDIELDIMHDIDIDIMHMHQLELELDIFKHVAAA [ZA1]” showed a TΔS (myosin A-MTIP complex; [1]) of 65.85 kcal/mol, a ΔG (myosin A-MTIP complex; [1]) of -5.72 kcal/mol and a ΔH (myosin A-MTIP complex; [1]) of 60.13 kcal/mol. For the same sequence, the “Decrease in binding strength (MTIP-bound versus free myosin A)” value (myosin A-MTIP complex; Kd of myosin A-MTIP complex/ZA1 compared with free myosin A/ZA1) was 80 times, the TΔS (myosin A tail) was “+10.66 kcal/mol” and the ΔG (myosin A tail) was -8.37 kcal/mol. The ΔH (myosin A tail) was “+2.29 kcal/mol”.
